This note sets out measurements from ChEMBL document CHEMBL3627703, “Synthetic, structural mimetics of the β-hairpin flap of HIV-1 protease inhibit enzyme function” (Bioorg Med Chem, 2015).

The source made the active and inactive calls. No cut-off for these calls is given here.

The target of this assay is Protease (Human immunodeficiency virus 1) (UniProt Q9YQ12). As to the kind of experiment: Competitive inhibition of recombinant HIV-1 protease expressed in Escherichia coli using Arg-Glu (EDANS)-Ser-Gln-Asn-Tyr-Pro-Ile-Val-Gln Lys(DABCYL)-Arg as substrate up to 60 uM by Michalies-Menten analysis.

On to `CCCCCCCCCCNC(=O)CN1C(=O)[C@@H](CC(C)C)N=C(C)c2ccc(C(=O)O)cc21`, for which the inhibition entry was “Active”.
